A mixed list of measured activities; the numbers were collected in NIAID ChemDB.

Shared fields: growth or infection tests; species: Mycobacterium avium complex; measure: MIC

Conditions beyond the fields shown may differ between rows.

| structure | strain | result |
|---|---|---|
| NCC[C@H](O)C(=O)N[C@@H]1C[C@H](N)[C@@H](O[C@H]2O[C@H](CN)[C@@H](O)[C@H](O)[C@H]2O)[C@H](O)[C@H]1O[C@H]1O[C@H](CO)[C@@H](O)[C@H](N)[C@H]1O | TMC 1469 | 1.56 µg/mL |
| O=C(O)c1cn(C2CC2)c2c(F)c(N3CCS(=O)CC3)c(F)cc2c1=O | PI12/39 | 4 µg/mL |
| NC[C@H]1O[C@H](O[C@H]2[C@H](O)[C@@H](O[C@H]3O[C@H](CO)[C@@H](O)[C@H](N)[C@H]3O)[C@H](N)C[C@@H]2N)[C@H](O)[C@@H](O)[C@@H]1O | Isolate C-16 | >400 µg/mL |
| CN1CCN(c2cc3c(cc2F)c(=O)c(C(=O)O)cn3-c2ccc(F)cc2)CC1 | 3211 | 16 µg/mL |
| O=C(O)c1cn(C2CC2)c2c(F)c(N3CCC(NC4CC4)C3)c(F)cc2c1=O | 1915112 | 2 µg/mL |
| NCC[C@H](O)C(=O)N[C@@H]1C[C@H](N)[C@@H](O[C@H]2O[C@H](CN)[C@@H](O)[C@H](O)[C@H]2O)[C@H](O)[C@H]1O[C@H]1O[C@H](CO)[C@@H](O)[C@H](N)[C@H]1O | 1008 | 2.5 µg/mL |
| CN[C@@H]1[C@@H](O)[C@@H](O[C@@H]2[C@@H](O)[C@H](O[C@H]3O[C@H](CN)CC[C@H]3N)[C@@H](N)C[C@H]2N)OC[C@]1(C)O | Isolate 53 | 1.56 µg/mL |
| CCNCC1CN(c2c(F)cc3c(=O)c(C(=O)O)cn(C4CC4)c3c2F)CC1CNCC | 1915112 | 32 µg/mL |
| NC[C@@H]1O[C@H](O[C@H]2[C@@H](O)[C@H](O[C@@H]3[C@@H](O)[C@H](N)C[C@H](N)[C@H]3O[C@H]3O[C@H](CO)[C@@H](O)[C@H](O)[C@H]3N)O[C@@H]2CO)[C@H](N)[C@@H](O)[C@@H]1O | Isolate 53 | 12.5 µg/mL |
| CO[C@H]1/C=C/O[C@@]2(C)Oc3c(C)c(O)c4c(O)c(c(/C=N/N5CCN(C/C=C/c6ccccc6)CC5)c(O)c4c3C2=O)NC(=O)/C(C)=C\C=C\[C@H](C)[C@H](O)[C@@H](C)[C@@H](O)[C@@H](C)[C@H](OC(C)=O)[C@@H]1C | SK-22 | 0.06 µg/mL |
| CC1CN(c2c(F)cc3c(=O)c(C(=O)O)cn(C4CC4)c3c2F)C(C)CN1 | 1172733 | 4 µg/mL |
| CO[C@H]1/C=C/O[C@@]2(C)Oc3c(C)c(O)c4c(O)c(c5c(c4c3C2=O)NC2(CCN(CC(C)C)CC2)N=5)=NC(=O)/C(C)=C\C=C\[C@H](C)[C@H](O)[C@@H](C)[C@@H](O)[C@@H](C)[C@H](OC(C)=O)[C@@H]1C | 155-4 | 0.5 µg/mL |
| CC1CN(c2c(F)cc3c(=O)c(C(=O)O)cn(C4CC4)c3c2F)CC(C)N1 | PI12/39 | 1 µg/mL |
| CC1COc2c(N3CCN(C)CC3)c(F)cc3c(=O)c(C(=O)O)cn1c23 | CIPT 14031001 | 5 µg/mL |
| NCCC(O)C(N)CC(=O)NC1CNC(=O)C(C2CCN=C(N)N2)NC(=O)/C(=C/NC(N)=O)NC(=O)C(CO)NC(=O)C(CO)NC1=O | Isolate 122 | 100 µg/mL |
| CCn1cc(C(=O)O)c(=O)c2cc(F)c(N3CCN(C)CC3)cc21 | CIPT 140310034 | 20 µg/mL |
| NCC1CN(c2c(F)cc3c(=O)c(C(=O)O)cn(C4CC4)c3c2F)CC1c1ccccc1 | 1915112 | 16 µg/mL |
| NC[C@H]1O[C@H](O[C@H]2[C@H](O)[C@@H](O[C@H]3O[C@H](CO)[C@@H](O)[C@H](N)[C@H]3O)[C@H](N)C[C@@H]2N)[C@H](O)[C@@H](O)[C@@H]1O | N-980 (HIV+) | 8 µg/mL |
| CC(C)N=c1cc2n(-c3ccc(Cl)cc3)c3ccccc3nc-2cc1Nc1ccc(Cl)cc1 | 542/HIV+ | <0.12 µg/mL |
| NC[C@H]1O[C@H](O[C@H]2[C@H](O[C@@H]3O[C@H](CO)[C@@H](O)[C@H]3O)[C@@H](O)[C@H](N)C[C@@H]2N)[C@H](N)[C@@H](O)[C@@H]1O | TMC 1473 | 0.78 µg/mL |
| CO[C@H]1/C=C/O[C@@]2(C)Oc3c(C)c(O)c4c(O)c(c(/C=N/N5CCN(C)CC5)c(O)c4c3C2=O)NC(=O)/C(C)=C\C=C\[C@H](C)[C@H](O)[C@@H](C)[C@@H](O)[C@@H](C)[C@H](OC(C)=O)[C@@H]1C | 1129 | 2 µg/mL |
| CN(C)CC1CCN(c2c(F)cc3c(=O)c(C(=O)O)cn(C4CC4)c3c2F)C1 | 1172733 | 0.5 µg/mL |
| NC[C@@H]1O[C@H](O[C@H]2[C@@H](O)[C@H](O[C@@H]3[C@@H](O)[C@H](N)C[C@H](N)[C@H]3O[C@H]3O[C@H](CO)[C@@H](O)C[C@H]3N)O[C@@H]2CO)[C@H](N)[C@@H](O)[C@@H]1O[C@H]1O[C@H](CO)[C@@H](O)[C@H](O)[C@@H]1O | TMC 1467 | 0.01 µg/mL |
| NCC[C@H](O)C(=O)N[C@@H]1C[C@H](N)[C@@H](O[C@H]2O[C@H](CN)[C@@H](O)[C@H](O)[C@H]2O)[C@H](O)[C@H]1O[C@H]1O[C@H](CO)[C@@H](O)[C@H](N)[C@H]1O | 3213 | 64 µg/mL |
| NCC1(O)CCN(c2c(F)cc3c(=O)c(C(=O)O)cn(N4CC4)c3c2F)C1 | 1172733 | 32 µg/mL |
| CC[C@H]1OC(=O)[C@H](C)[C@@H](O[C@H]2C[C@@](C)(OC)[C@@H](O)[C@H](C)O2)[C@H](C)[C@@H](O[C@@H]2O[C@H](C)C[C@H](N(C)C)[C@H]2O)[C@](C)(OC)C[C@@H](C)C(=O)[C@H](C)[C@@H](O)[C@]1(C)O | 3218 | 2 µg/mL |
| NC[C@@H]1O[C@H](O[C@H]2[C@@H](O)[C@H](O[C@@H]3[C@@H](O)[C@H](N)C[C@H](N)[C@H]3O[C@H]3O[C@H](CO)[C@@H](O)[C@H](O)[C@H]3N)O[C@@H]2CO)[C@H](N)[C@@H](O)[C@@H]1O | CH-1/HIV+ | 3.12 µg/mL |

The first 2 rows once more:

structure | strain | result
NCC[C@H](O)C(=O)N[C@@H]1C[C@H](N)[C@@H](O[C@H]2O[C@H](CN)[C@@H](O)[C@H](O)[C@H]2O)[C@H](O)[C@H]1O[C@H]1O[C@H](CO)[C@@H](O)[C@H](N)[C@H]1O | TMC 1469 | 1.56 µg/mL
O=C(O)c1cn(C2CC2)c2c(F)c(N3CCS(=O)CC3)c(F)cc2c1=O | PI12/39 | 4 µg/mL